# Assay results reported in ChEMBL document CHEMBL1149314, “Synthesis of AZT 5'-triphosphate mimics and their inhibitory effects on HIV-1 reverse transcriptase” (J Med Chem, 2004).
# Several values for one entry are separate records, joined by “and”; a condition that tells them apart may be missing. Equal entries are not always repeated.
# Test system: Human immunodeficiency virus 1
# Test: Inhibition of HIV1 reverse transcriptase relative to AZT triphosphate
# Conditions: concentration not given here
row,Compound,inhibition
1,Cc1cn([C@@H]2C[C@@H](N=[N+]=[N-])[C@H](COP(=O)(O)OP(=O)(O)C(F)(F)P(=O)(O)F)O2)c(=O)[nH]c1=O,18.8%
2,CNP(=O)(O)C(F)(F)P(=O)(O)OP(=O)(O)OC[C@@H]1O[C@H](n2cc(C)c(=O)[nH]c2=O)C[C@H]1N=[N+]=[N-],14.8%
3,COP(=O)(O)C(F)(F)P(=O)(O)OP(=O)(O)OC[C@@H]1O[C@H](n2cc(C)c(=O)[nH]c2=O)C[C@H]1N=[N+]=[N-],71.1%
4,Cc1cn([C@@H]2C[C@@H](N=[N+]=[N-])[C@H](COP(=O)(O)OP(=O)(O)C(F)(F)P(=O)(O)Oc3ccccc3)O2)c(=O)[nH]c1=O,36.1%
5,Cc1cn([C@@H]2C[C@@H](N=[N+]=[N-])[C@H](COP(=O)(O)OP(=O)(O)C(F)(F)P(N)(=O)O)O2)c(=O)[nH]c1=O,5.56%
6,Cc1cn([C@@H]2C[C@@H](N=[N+]=[N-])[C@H](COP(=O)(O)OP(=O)(O)C(F)(F)P(=O)(O)O)O2)c(=O)[nH]c1=O,4.88%
7,Cc1cn([C@@H]2C[C@@H](N=[N+]=[N-])[C@H](COP(=O)(O)OP(=O)(O)C(F)(F)P(=O)(O)Nc3ccccc3)O2)c(=O)[nH]c1=O,30.2%
8,BP(=O)(OC[C@@H]1O[C@H](n2cc(C)c(=O)[nH]c2=O)C[C@H]1N=[N+]=[N-])OP(=O)(O)C(F)P(=O)(O)O (some centres not stated),3.2%
9,BP(=O)(OC[C@@H]1O[C@H](n2cc(C)c(=O)[nH]c2=O)C[C@H]1N=[N+]=[N-])OP(=O)(O)C(Cl)(Cl)P(=O)(O)O (some centres not stated),8.8% and 11%
10,CCNP(=O)(O)C(F)(F)P(=O)(O)OP(=O)(O)OC[C@@H]1O[C@H](n2cc(C)c(=O)[nH]c2=O)C[C@H]1N=[N+]=[N-],49.4%
11,BP(=O)(OC[C@@H]1O[C@H](n2cc(C)c(=O)[nH]c2=O)C[C@H]1N=[N+]=[N-])OP(=O)(O)C(F)(F)P(=O)(O)O (some centres not stated),1.1%
12,BP(=O)(OC[C@@H]1O[C@H](n2cc(C)c(=O)[nH]c2=O)C[C@H]1N=[N+]=[N-])OP(=O)(O)OP(=O)(O)O (some centres not stated),1.1%
